Anti-infective test results gathered from many reports (values: NIAID ChemDB through PubChem).

Common to all: whole-cell or culture tests; organism: Coxsackie virus; read-out: EC50

Neighbouring rows are from separate reports.

{"compound": "NC(=O)c1ccnc([C@@H]2O[C@H](CO)[C@@H](O)[C@H]2O)c1", "strain or isolate": "TYPE B4", "method": "cytopathic effect", "cells": "VERO", "result": ">400 µg/mL"}
{"compound": "Nc1ncnc2c1ncn2[C@H]1[C@H](O)[C@H](O)[C@]2(CO)O[C@H]12", "strain or isolate": "TYPE B4", "method": "cytopathic effect", "cells": "HeLa", "result": ">10 µg/mL"}
{"compound": "CSc1nsc(-c2ccccc2)c1C(N)=O", "strain or isolate": "TYPE B1", "method": "plaque count", "cells": "HEP-2", "result": ">250 µg/mL"}
{"compound": "Nc1ncnc2c1ncn2C1CC(CO)[C@@H](O)[C@H]1O", "strain or isolate": "TYPE B4", "method": "cytopathic effect", "cells": "HeLa", "result": "≥10 µg/mL"}
{"compound": "CC(=O)OC1C=COC=C2C[C@@]34SSSS[C@]5(CC6=COC=CC(OC(C)=O)C6N5C3=O)C(=O)N4C21", "strain or isolate": "TYPE A21", "cells": "HeLa", "result": "0.2 µg/mL"}
{"compound": "O=C(CCCc1ccccc1)N1CC[N+]2(CC1)CC[N+]1(CCN(C(=O)CCCc3ccccc3)CC1)CC2", "strain or isolate": "B3", "method": "cytopathic effect", "cells": "HeLa", "result": ">70 µg/mL"}
{"compound": "OC[C@H]1O[C@H](n2cnc3cc(Cl)c(Cl)cc32)[C@@H](O)[C@H]1O", "strain or isolate": "TYPE B4", "method": "cytopathic effect", "cells": "HeLa", "result": ">200 µg/mL"}
{"compound": "Cc1cn([C@@H]2CC[C@H](CO)C2)c(=O)[nH]c1=O", "strain or isolate": "TYPE B4", "method": "cytopathic effect", "cells": "HeLa", "result": ">400 µg/mL"}
{"compound": "CC(=O)OC1C=COC=C2C[C@@]34SC(=S)S[C@]5(CC6=COC=CC(OC(C)=O)C6N5C3=O)C(=O)N4C21", "strain or isolate": "TYPE A21", "cells": "HeLa", "result": "18 µg/mL"}
{"compound": "O=c1[nH]cnc2c1ncn2[C@@H]1C=C(CO)[C@@H](O)[C@H]1O", "strain or isolate": "TYPE B4", "method": "cytopathic effect", "cells": "HeLa", "result": ">400 µg/mL"}
{"compound": "OCCOC(CO)n1cnc2cc(Cl)c(Cl)cc21", "strain or isolate": "TYPE B4", "method": "cytopathic effect", "cells": "HeLa", "result": ">200 µg/mL"}
{"compound": "Nc1ncnc2c1ncn2[C@@H]1C=C(CO)[C@@H](O)[C@H]1O", "strain or isolate": "TYPE B4", "method": "cytopathic effect", "cells": "VERO", "result": "0.04 µg/mL"}
{"compound": "Nc1ncnc2c1ncn2[C@@H]1C[C@H](CO)[C@@H](O)C1", "strain or isolate": "TYPE B4", "method": "cytopathic effect", "cells": "HeLa", "result": ">100 µg/mL"}
{"compound": "NC(=O)c1csc([C@@H]2O[C@H](CO)[C@@H](O)[C@H]2O)n1", "strain or isolate": "TYPE B1/HA201468", "method": "cytopathic effect", "cells": "HeLa", "result": "130 µg/mL"}
{"compound": "O=C1N2C3C(=COC=CC3O)CC23SSC12CC1=COC=CC(O)C1N2C3=O", "strain or isolate": "TYPE A21", "cells": "HeLa", "result": "0.007 µg/mL"}
{"compound": "NC(=O)c1ncn([C@@H]2O[C@H](CO)[C@@H](O)[C@H]2O)n1", "strain or isolate": "TYPE B1", "method": "plaque count", "cells": "HeLa", "result": ">100 µg/mL"}
{"compound": "O=C1N2C3C(=COC=CC3O)C[C@]23SSSS[C@]12CC1=COC=CC(O)C1N2C3=O", "strain or isolate": "TYPE A21", "cells": "HeLa", "result": "0.0001 µg/mL"}
{"compound": "O[C@@H]1CC(n2cnc3cc(Cl)c(Cl)cc32)OC[C@@H]1O", "strain or isolate": "TYPE B4", "method": "cytopathic effect", "cells": "HeLa", "result": ">100 µg/mL"}
{"compound": "CSc1nsc(-c2ccccc2)c1C#N", "strain or isolate": "TYPE B1", "method": "plaque count", "cells": "HEP-2", "result": ">20 µg/mL"}
{"compound": "OC[C@H]1O[C@@H](n2cnc3cc(Cl)c(Cl)cc32)[C@H](O)[C@H]1O", "strain or isolate": "TYPE B4", "method": "cytopathic effect", "cells": "HeLa", "result": ">10 µg/mL"}
{"compound": "Nc1ncnc2c1ccn2[C@@H]1C[C@H](CO)[C@@H](O)[C@H]1O", "strain or isolate": "TYPE B4", "method": "cytopathic effect", "cells": "HeLa", "result": "7 µg/mL"}
{"compound": "CC(=O)OC1C=COC=C2C[C@@]3(SC(C)=O)C(=O)N4C5C(=COC=CC5OC(C)=O)C[C@@]4(SC(C)=O)C(=O)N3C21", "strain or isolate": "TYPE A21", "cells": "HeLa", "result": "0.09 µg/mL"}
{"compound": "N#Cc1c(N2CCCC2)nsc1-c1ccccc1", "strain or isolate": "TYPE B1", "method": "plaque count", "cells": "HEP-2", "result": ">7 µg/mL"}
{"compound": "Nc1nccc2c1ncn2[C@@H]1O[C@H](CO)[C@@H](O)[C@H]1O", "strain or isolate": "TYPE B4", "method": "cytopathic effect", "cells": "HeLa", "result": "≥40 µg/mL"}
{"compound": "CCOC(=O)OC1C=COC=C2C[C@@]34SS[C@]5(CC6=COC=CC(O)C6N5C3=O)C(=O)N4C21", "strain or isolate": "TYPE A21", "cells": "HeLa", "result": "0.0002 µg/mL"}
{"compound": "Nc1nccc2c1ncn2[C@@H]1C[C@H](CO)[C@@H](O)[C@H]1O", "strain or isolate": "TYPE B4", "method": "cytopathic effect", "cells": "HeLa", "result": ">400 µg/mL"}
{"compound": "Cc1cc(Cl)c([N+](=O)[O-])c(N2CC[N+]3(CC2)CC[N+]2(CCN(c4nc(C)cc(Cl)c4[N+](=O)[O-])CC2)CC3)n1", "strain or isolate": "B3", "method": "cytopathic effect", "cells": "HeLa", "result": ">70 µg/mL"}
{"compound": "N#CCSc1nsc(-c2ccccc2)c1C#N", "strain or isolate": "TYPE B1", "method": "plaque count", "cells": "HEP-2", "result": ">10 µg/mL"}
{"compound": "CCN=C1NC(=O)[C@H]([C@H](C)c2c[nH]c3ccccc23)S1", "strain or isolate": "TYPE B1", "method": "plaque count", "cells": "HeLa", "result": "10 µg/mL"}
{"compound": "CN(C)c1nsc(-c2ccccc2)c1C#N", "strain or isolate": "TYPE B1", "method": "plaque count", "cells": "HEP-2", "result": ">15 µg/mL"}
{"compound": "Nc1ncnc2c1ncn2C[C@@H](O)[C@H](O)C(=O)O", "strain or isolate": "TYPE B4", "method": "cytopathic effect", "cells": "HeLa", "result": ">400 µg/mL"}
{"compound": "Cc1nc(N2CC[N+]3(CC2)CC[N+]2(CCN(c4nc(C)nc5c4no[n+]5[O-])CC2)CC3)c2c(no[n+]2[O-])n1", "strain or isolate": "B3", "method": "cytopathic effect", "cells": "HeLa", "result": ">70 µg/mL"}
{"compound": "CC(=O)OC1C=COC=C2C[C@@]3(S)C(=O)N4C5C(=COC=CC5OC(C)=O)C[C@@]4(S)C(=O)N3C21", "strain or isolate": "TYPE A21", "cells": "HeLa", "result": "5.5 µg/mL"}
{"compound": "Nc1ncnc2c1ccn2[C@@H]1O[C@H](CO)[C@@H](O)[C@H]1O", "strain or isolate": "TYPE B4", "method": "cytopathic effect", "cells": "HeLa", "result": "0.2 µg/mL"}
{"compound": "CC(C)[Si]1(C(C)C)OC[C@H]2O[C@@H](n3cnc4cc(Cl)c(Cl)cc43)[C@@H](O)[C@H]2O[Si](C(C)C)(C(C)C)O1", "strain or isolate": "TYPE B4", "method": "cytopathic effect", "cells": "HeLa", "result": ">400 µg/mL"}
{"compound": "Cc1cn([C@@H]2C[C@H](CO)[C@@H](O)C2)c(=O)[nH]c1=O", "strain or isolate": "TYPE B4", "method": "cytopathic effect", "cells": "HeLa", "result": ">100 µg/mL"}
{"compound": "CS[C@@]12CC3=COC=CC(OC(C)=O)C3N1C(=O)[C@]1(SC)CC3=COC=CC(OC(C)=O)C3N1C2=O", "strain or isolate": "TYPE A21", "cells": "HeLa", "result": "1 µg/mL"}
{"compound": "Cc1cn([C@H]2C[C@H](O)[C@@H](CO)[C@@H]2C)c(=O)[nH]c1=O", "strain or isolate": "TYPE B4", "method": "cytopathic effect", "cells": "VERO", "result": ">400 µg/mL"}
{"compound": "CCCSc1nsc(-c2ccccc2)c1C(=O)O", "strain or isolate": "TYPE B1", "method": "plaque count", "cells": "HEP-2", "result": ">500 µg/mL"}

Again, the opening 3 rows:

compound,strain or isolate,method,cells,result
NC(=O)c1ccnc([C@@H]2O[C@H](CO)[C@@H](O)[C@H]2O)c1,TYPE B4,cytopathic effect,VERO,>400 µg/mL
Nc1ncnc2c1ncn2[C@H]1[C@H](O)[C@H](O)[C@]2(CO)O[C@H]12,TYPE B4,cytopathic effect,HeLa,>10 µg/mL
CSc1nsc(-c2ccccc2)c1C(N)=O,TYPE B1,plaque count,HEP-2,>250 µg/mL

ECn: concentration that inhibits the pathogen or its effect by n%.